# Percent effect of library compounds

Mtb cholesterol medium: 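Whole-cell growth test on Mycobacterium tuberculosis, read after 4 days in a medium based on cholesterol and the lipid DPPC; the read-out is not stated. Compounds at 500 µM. Direction is inferred from retests: higher values go with more growth inhibition. About 18,000 compounds were tested under these conditions; 5% (about 900) showed 50% or more at least once.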
Mtb glucose medium: 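Growth of Mycobacterium tuberculosis over 3 days (7H9 medium with glucose and tyloxapol); the read-out is not stated. Concentration: 500 µM. Direction is inferred from retests: higher values go with more growth inhibition. About 18,000 compounds were tested under these conditions; 7.9% (about 1,400) showed 50% or more at least once.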

Values are the deposited “Percent Effect”, in %.
The controls that fix the scale are not given in the record; negative values are as filed.
Many other results are left out here, so strong results are more common than in the screen.
A dash means the value is not listed here; it may have been measured.

SMILES,Mtb cholesterol medium,Mtb glucose medium
COc1cccc(OC(F)(F)F)c1CN,-,26.67
CSCc1nc(CNC(=O)c2ccnn2C(C)C)cs1,30.87,-
O=C(Cn1c(=O)[nH]c(=O)c2ccccc21)N1CCCC1,-,5.236
CCc1nc(CN2CCN(c3cnccn3)CC2)n[nH]1,-,-6.479
Cc1ccccc1CSCC(N)=O,17.14,-
Cc1cccc(CNC(=O)NCCCC(N)=O)c1,-18.86,-
CC(=O)c1ccc(Cl)c(S(=O)(=O)NC(CN)C2CC2)c1 (stereo not given),-,50.99
Cc1cccc(NC(=O)CC2CCS(=O)(=O)C2)c1C (stereo not given),-,3.583
COCCN1CCC(NC(=O)Nc2ccccc2)C1 (stereo not given),-4.043,-
CC(CN)CNC(=O)OC(C)(C)C (stereo not given),-0.6249,-
COc1ccnc(N2CCN(c3ccccn3)CC2)n1,-1.867,6.751
Cc1ccccc1C1(O)CCNC1 (stereo not given),-,-13.62
c1cc(CNCCn2cccn2)c2c(c1)OCCCO2,-,23.66
CN1CC[C@H]2CN(C(=O)CCOc3ccccc3)C[C@H]21,-,12.69
NC(=O)C(c1ccccc1)N1CCCC1 (stereo not given),-,-0.9581
COCCN1CCCN(C(=O)c2ccccc2Cl)CC1,10.06,21.29
Cc1cc(N2CCN(C)CC2)n2ncnc2n1,0.9144,6.204
COc1ccccc1NC(=O)CCN1CCC(O)CC1,-,0.0727
CSCc1cccc(CNC(=O)c2cc[nH]n2)c1,50.79,71.8
OCCNC1CCN(c2ncc(Cl)cn2)CC1,-,-5.608
CCc1ccc(O)c(C(=O)NCC2CCS(=O)(=O)C2)c1 (stereo not given),-,42.91
COCCC1(C(=O)N2CCC(CO)C2)CCC1 (stereo not given),-,31.32
COc1cc(CN)ccc1O,19.58,-
CC(C)CN1CCC(O)CC1,4.291,-
COCc1nc(CNc2nc(N)ncc2C)no1,-,3.715
COc1ccc(S(=O)(=O)N2CCCNCC2)cc1,-,6.919
CC1(C)CN(C(=O)c2ncncc2Cl)CC[S+]1[O-] (stereo not given),-,-11.07
CCNC(=O)CNC,-,-2.414
CCCN1CCN(c2ccccn2)CC1,-1.268,-
O=C(NCC1CCCNC1)c1coc2ccccc12 (stereo not given),-,5.914
Cc1nn(C)c(Cl)c1C(=O)N1CCC(C(N)=O)CC1,6.693,-
CN(CC(=O)N1CCOCC1)Cc1ccc(Br)o1,14.95,9.45
CC(=O)c1ccc(CNC(=O)c2scnc2C)nc1C,-,6.221
COC(=O)c1ccc(=O)n(CC(=O)NCCC(C)C)c1,-,-4.805
O=C(NCc1ccc2c(c1)OCCCO2)c1cscn1,65.46,74.27
CN1CCN(C(=O)c2cnsn2)c2ccccc21,37.14,50.46
CC(C)OC1CCCNC1 (stereo not given),-,-5.241
O=C(CCc1nc(-c2ccncc2)no1)NC1CC1,-16.94,-
COCCn1ccnc1CN1CCC(C#N)CC1,-,-7.455
Cc1ccc(F)cc1C(=O)N1CCSC1,-,18.37
CC(C)Nc1ncccc1C(=O)Nc1nncs1,55.95,-0.3607
CCNC(=O)Cc1nc(-c2ccncc2)n[nH]1,-,3.614
CC(CCN)N(C)Cc1ccccc1 (stereo not given),-5.432,-
CCOCc1nnc(NCc2nc(C)cs2)o1,-,-4.023
OCCCN1CCN(c2nccc3occc23)CC1,-11.69,-
CCn1cccc(N)c1=O,-,-33.03
Cc1cc(C(=O)N2CCn3cccc3C2C)no1 (stereo not given),-,-17.45
COc1ccccc1C(N)c1noc(C)n1 (stereo not given),-,10.55
O=C(NCC(=O)N1CCCC1)c1csc2ccccc12,-,97.52
COc1ccc2c(c1)NCC(C)O2 (stereo not given),44.95,66.67
CCOc1cccc(CN2CCN(CCO)CC2)c1O,8.363,-
CC(NC(=O)c1ccc(Cl)c(I)c1)C(=O)N(C)C (stereo not given),34.38,50.43
Cc1noc(C)c1CC(=O)NC1CC1,-,-2.4
CCc1ccc(CN(C)C(=O)COC(C)C)nc1,-,19.18
CCN1CCN(C(=O)C(C)Oc2ccc(F)cc2)CC1 (stereo not given),-,14.55
CCc1nccn1CCCn1cnnc1,-,2.674
COc1cccc(NC(=O)CN2CCC(O)CC2)c1,6.765,4.331
CC(=O)c1ccc(NC(=O)N2CC[C@H]3CNC[C@H]32)cc1,-,41.68
Cc1ccc(C(=O)N(C)C)cn1,-,-11.72
COCCNCCNC(=O)C1CSc2ccccc21 (stereo not given),-,-0.7066
CN(CCCNC(=O)[C@H]1CC[C@@H](N)C1)c1ccccc1,-,41.05
Cc1cc(F)ccc1C1NCCNC1=O (stereo not given),-5.006,-
COc1ccc(CCC(=O)NC2CCN(C)CC2)cc1,-,-0.212
Cc1nn(CCO)c(C)c1CNCC(=O)NC(C)(C)C,2.608,-
CN(CCCOc1ccccc1)CC(=O)NC(N)=O,-8.746,-
CCC(C)NC(=O)c1cc(F)cc(F)c1 (stereo not given),59.74,65.82
CC1Cc2ccccc2N1CC(N)=O (stereo not given),7.969,19.7
CC(Sc1nnc[nH]1)C(=O)Nc1ccc(F)cc1F (stereo not given),-,-26.21
CCN(C)CCNC(=O)c1cc(-c2ccccc2)[nH]n1,-7.72,-
C=C(C)CN1CCC(NC(=O)N2CCSCC2)CC1,60.92,5.958
CC(C)Oc1ccc(C(CN)N(C)C)cc1 (stereo not given),49.93,81.93
CCC1(CO)CCCN1 (stereo not given),-,-15.67
O=C(CSCCO)Nc1ccccc1F,8.167,25.79
CC(C)CCNC(=O)c1cc2c([nH]c1=O)CCCC2=O,-,-4.265

For reference, 7 entries once more:

For COCCN1CCC(NC(=O)Nc2ccccc2)C1 (stereo not given) the result was Mtb cholesterol medium: -4.043%.
For Cc1ccccc1C1(O)CCNC1 (stereo not given) the result was Mtb glucose medium: -13.62%.
For CCC1(CO)CCCN1 (stereo not given) the result was Mtb glucose medium: -15.67%.
For CC(C)Oc1ccc(C(CN)N(C)C)cc1 (stereo not given) the result was Mtb cholesterol medium: 49.93%; Mtb glucose medium: 81.93%.
For CC(CCN)N(C)Cc1ccccc1 (stereo not given) the result was Mtb cholesterol medium: -5.432%.
For O=C(NCC(=O)N1CCCC1)c1csc2ccccc12 the result was Mtb glucose medium: 97.52%.
For CCN1CCN(C(=O)C(C)Oc2ccc(F)cc2)CC1 (stereo not given) the result was Mtb glucose medium: 14.55%.

From ChEMBL document CHEMBL3988442, “University of Dundee, Small-Polar-MMV Screening Library” (2021).